A mixed list of measured activities; the numbers were collected in NIAID ChemDB.

Common to all: host cell toxicity; cell line: MT-2; measure: CC50

Lines come from different laboratories, so protocols vary. CCn is the concentration with n% toxicity to the cells.

smiles | result
Nc1cccnc1N1CCN(C(=O)c2cc3ccccc3[nH]2)CC1 | 15 µM
O=C(Nc1ccccn1)c1cccc(CN2C(=O)N(Cc3cccc(C(=O)Nc4ccccn4)c3)[C@H](Cc3ccccc3)[C@H](O)[C@@H](O)[C@H]2Cc2ccccc2)c1 | >50 µM
Cc1cn([C@H]2C[C@H](N=[N+]=[N-])[C@@H](CO)O2)c(=O)[nH]c1=O | 132 µg/mL
Cc1c(O)cccc1C(=O)N[C@@H](CSc1ccccc1)[C@H](O)CN1C[C@H]2CCCC[C@H]2C[C@H]1C(=O)NC(C)(C)CO | 92.6 µM
Nc1cccc(CN2C(=O)N(Cc3cccc(C(=O)Nc4nc5ccccc5[nH]4)c3)[C@H](Cc3ccccc3)[C@H](O)[C@@H](O)[C@H]2Cc2ccccc2)c1 | >50 µM
O=C1CN=C(c2ccc[nH]2)c2cc(Cl)ccc2N1 | 1.6 µM
N#CCNC(=O)c1cccc(CN2C(=O)N(Cc3cccc(C(=O)NCC(=O)O)c3)[C@H](Cc3ccccc3)[C@H](O)[C@@H](O)[C@H]2Cc2ccccc2)c1 | >50 µM
Nc1ccn([C@H]2CC[C@@H](CO)O2)c(=O)n1 | >100 µM
Cc1ccc(NC(=O)c2cccc(CN3C(=O)N(Cc4cccc(N)c4)[C@H](Cc4ccccc4)[C@H](O)[C@@H](O)[C@H]3Cc3ccccc3)c2)nc1 | >50 µM
Nc1ncnc2c1ncn2C[C@@H](CF)OCP(=O)(O)O | >100 µM
CS(=O)(=O)O[C@H]1C[C@H](n2ccc(=O)[nH]c2=O)O[C@@H]1COP(=O)(OCC(Cl)(Cl)Cl)OCC(Cl)(Cl)Cl | >200 µM
COc1cc2c(cc1OC)[C@H](c1cc(OC)c(OC)c(OC)c1)[C@@H](C)[C@@H](C)C2 | >10 µM
CN1CC=C(CC2(CC3=CCN(C)CC3)C(=O)N(c3ccccc3)c3cc4ccccc4cc32)CC1 | 89 µM
CC(=O)O[C@H]1C[C@H](n2cc(C)c(=O)[nH]c2=O)O[C@@H]1COP(=O)(OCC(Cl)(Cl)Cl)OCC(Cl)(Cl)Cl | 200 µM
Cc1cn(C=C2C[C@H]2CO)c(=O)[nH]c1=O | >100 µM
COc1cc(-c2cc(=O)c3c(O)cc(O[C@@H]4O[C@H](CO)[C@@H](O)[C@H](O)[C@H]4OS(=O)(=O)O)cc3o2)ccc1O | >800 µM
O=c1[nH]cnc2c1ncn2[C@H]1CC[C@@H](CO)O1 | >500 µM
Nc1cc(Cl)nc(SCc2ccccc2)n1 | >10 µM
Clc1ccc2c(c1)N=C(N1CCNCC1)c1ccccc1N2 | 7 µg/mL
CC(C)[C@H](NC(=O)N(C)Cc1ccccn1)C(=O)N[C@@H](Cc1ccccc1)[C@H](O)[C@H](O)[C@H](Cc1ccccc1)NC(=O)[C@@H](NC(=O)N(C)Cc1ccccn1)C(C)C | >100 µM
CCCc1cc(=O)oc2c3c(c4c(c12)OC(C)(C)C=C4)O[C@H](C)[C@@H](C)[C@@H]3O | 7.3 µM
COc1cc([C@@H]2c3cc4c(cc3CC3COC(=O)C32)OCO4)cc(OC)c1OC | >0.01 µg/mL
O=C1N(c2ccccc2)c2ccccc2C1(Cc1ccccc1)Cc1ccncc1 | 56 µM
Nc1nc2c(ncn2[C@H]2C=C[C@@H](CO)O2)c(=O)[nH]1 | 40 µM
CC#C[C@@]1(CO)C=C[C@H](n2cc(C)c(=O)[nH]c2=O)O1 | >100 µM
Nc1ccn([C@H]2CC[C@@H](CO)O2)c(=O)n1 | 176.3 µM
CCC1(c2ccccc2)Sc2ccccc2-n2cccc2C1=O | 110 µM
CC(=O)O[C@H]1C[C@H](n2ccc(=O)[nH]c2=O)O[C@@H]1COP(=O)(OCC(Cl)(Cl)Cl)OCC(Cl)(Cl)Cl | >200 µM
COc1cc(C[C@@]2(O)C(=O)OC[C@@H]2Cc2ccc(OC)c(OC)c2)ccc1O | 1.12 µg/mL
CN1CCN(C2=Nc3cc(O)ccc3Nc3ccccc32)CC1 | >100 µg/mL
Nc1ccn([C@H]2CC[C@@H](CO)O2)c(=O)n1 | 10 µM
Nc1ccn([C@H]2CC[C@@H](CO)O2)c(=O)n1 | 400 µM
O=C(/C=C/c1ccc(O)c(O)c1)O[C@@H]1CC(O)(C(=O)O)C[C@@H](OC(=O)/C=C/c2ccc(O)c(O)c2)C1O | >300 µM
Cc1cn([C@H]2C[C@H](N=[N+]=[N-])[C@@H](CO)O2)c(=O)[nH]c1=O | 100 µM
CC(C)CN(C[C@@H](O)[C@H](Cc1ccccc1)NC(=O)[C@H](CC(N)=O)NC(=O)c1ccc2ccccc2n1)C(=O)NC(C)(C)C | >100 µg/mL
C[C@H](Cn1cnc2c(N)ncnc21)OCP(=O)(O)O | 440 µM
COc1cc([C@@H]2c3cc4c(cc3[C@H](O)[C@H]3COC(=O)[C@@H]23)OCO4)cc(OC)c1O | >0.01 µg/mL
Cc1ccc(NC(=O)c2cccc(CN3C(=O)N(Cc4cccc(C(=O)Nc5ccc(C)cn5)c4)[C@H](Cc4ccccc4)[C@H](O)[C@@H](O)[C@H]3Cc3ccccc3)c2)nc1 | >50 µM
Nc1ncnc2c1ncn2CCOCP(=O)(O)O | 157 µM
Nc1ncnc2c1ncn2CCOCP(=O)(O)O | 160 µM
O=C(Nc1ccccn1)c1cccc(CN2C(=O)N(Cc3cccc([N+](=O)[O-])c3)[C@H](Cc3ccccc3)[C@H](O)[C@@H](O)[C@H]2Cc2ccccc2)c1 | >50 µM
Nc1ccn([C@H]2CC[C@@H](CO)O2)c(=O)n1 | 32 µM
C[C@H](Cn1cnc2c(N)ncnc21)OCP(=O)(O)O | 1250 µM
O=C(CCCN1CCC(O)(c2ccc(Cl)cc2)CC1)c1ccc(F)cc1 | >20 µg/mL
COC(=O)[C@H](C)NP(=O)(OC[C@H]1C/C1=C\n1cnc2c(N)nc(N)nc21)Oc1ccccc1 | 44 µM
CC(C)(C)NC(=O)c1cccc(CN2C(=O)N(Cc3cccc(N)c3)[C@H](Cc3ccccc3)[C@H](O)[C@@H](O)[C@H]2Cc2ccccc2)c1 | >50 µM
CN1CC=C(CC2(CC3=CCN(C)CC3)C(=O)N(Cc3ccccc3)c3ccccc32)CC1 | 109 µM
Oc1ccc2c(c1)N=C(N1CCNCC1)c1ccccc1N2 | >100 µg/mL
COc1cc([C@@H]2c3cc4c(cc3[C@H](O)[C@H]3COC(=O)[C@H]23)OCO4)cc(OC)c1O | 0.0066 µg/mL
CC(C)(C)NC(=O)[C@@H]1CN(Cc2cccnc2)CCN1C[C@@H](O)C[C@@H](Cc1ccccc1)C(=O)N[C@H]1c2ccccc2C[C@H]1O | >10 µM
COc1cccc(CN2C(=O)N(Cc3cccc(C(=O)Nc4ccc(C)cn4)c3)[C@H](Cc3ccccc3)[C@H](O)[C@@H](O)[C@H]2Cc2ccccc2)c1 | >50 µM
CN1CC=C(CC2(CC3=CCN(C)CC3)c3cccc4cccc(c34)C2O)CC1 | 90 µM
C[C@H](Cn1cnc2c(N)ncnc21)OCP(=O)(OCOC(=O)C(C)(C)C)OCOC(=O)C(C)(C)C | 40 µM
NC(=O)C(c1ccccc1)(c1ccccc1)C1CCCN(CCc2ccc3c(c2)CCO3)C1 | 53 µM
Nc1nc(N)c2ncn([C@H]3CO[C@@H](CO)O3)c2n1 | >1000 µM
COC(=O)[C@H](C)NP(=O)(OCC1C/C1=C/n1cnc2c(N)ncnc21)Oc1ccccc1 | 0.24 µM
Nc1ccn(C[C@@H](CO)OCP(=O)(O)O)c(=O)n1 | >500 µM
COc1cc(CN2C(=O)N(Cc3cccc(C(=O)Nc4ccccn4)c3)[C@H](Cc3ccccc3)[C@H](O)[C@@H](O)[C@H]2Cc2ccccc2)cc(OC)c1 | >50 µM
CN1CC=C(Cc2cn(-c3ccccc3)c3ccccc23)CC1 | 18 µM
NC(=O)C(c1ccccc1)(c1ccccc1)[C@H]1CCCN(CCc2ccc3c(c2)CCO3)C1 | 53 µM

Repeating the first 8 entries:

Nc1cccnc1N1CCN(C(=O)c2cc3ccccc3[nH]2)CC1 ; result: 15 µM
O=C(Nc1ccccn1)c1cccc(CN2C(=O)N(Cc3cccc(C(=O)Nc4ccccn4)c3)[C@H](Cc3ccccc3)[C@H](O)[C@@H](O)[C@H]2Cc2ccccc2)c1 ; result: >50 µM
Cc1cn([C@H]2C[C@H](N=[N+]=[N-])[C@@H](CO)O2)c(=O)[nH]c1=O ; result: 132 µg/mL
Cc1c(O)cccc1C(=O)N[C@@H](CSc1ccccc1)[C@H](O)CN1C[C@H]2CCCC[C@H]2C[C@H]1C(=O)NC(C)(C)CO ; result: 92.6 µM
Nc1cccc(CN2C(=O)N(Cc3cccc(C(=O)Nc4nc5ccccc5[nH]4)c3)[C@H](Cc3ccccc3)[C@H](O)[C@@H](O)[C@H]2Cc2ccccc2)c1 ; result: >50 µM
O=C1CN=C(c2ccc[nH]2)c2cc(Cl)ccc2N1 ; result: 1.6 µM
N#CCNC(=O)c1cccc(CN2C(=O)N(Cc3cccc(C(=O)NCC(=O)O)c3)[C@H](Cc3ccccc3)[C@H](O)[C@@H](O)[C@H]2Cc2ccccc2)c1 ; result: >50 µM
Nc1ccn([C@H]2CC[C@@H](CO)O2)c(=O)n1 ; result: >100 µM